Reference: publication PMC9692485

Target: human angiotensin-converting enzyme 2 (hACE2) (human) (UniProt Q9BYF1)
Assay: ELISA; 200 ng recombinant hACE2 coated in a 96-well plate overnight at 4 °C; serially diluted RBD proteins (80, 20, 5, 1.25, 0.31, 0.078 and 0.02 μM) added for 2 h at room temperature; detected with anti-RBD mouse serum and anti-mouse IgG HRP, OD at 450 nm

Substance	EC50	OD450 at 20 μM RBD
His-tag SARS-CoV-2 RBD (from UniProt P0DTC2 333-516) (domain or fragment; other documents disagree on this pair)	7.51 µM	1.4 OD450
tag-free SARS-CoV-2 RBD (from UniProt P0DTC2 333-516) (domain or fragment; other documents disagree on this pair)	1.78 µM	1.9 OD450
